Compound potency records, mixed from different reports. Data source: NIAID ChemDB in PubChem.

Shared fields: enzyme or target tests; species: Hepatitis C virus

Neighbouring rows are from separate reports. a–b is a range or a potency band. ICn is the concentration giving n% inhibition. An empty or dashed field is not shown.

SMILES,target,strain or isolate,read-out,method,value
CC(C)(C)OC(=O)c1ccc(N[C@H](C(=O)N2C[C@H](Oc3nc(-c4ccccc4)nc4ccccc34)C[C@H]2C(=O)NC2(C(=O)O)C[C@@H]2C2CC2)C(C)(C)C)cc1,HCV NS3/NS4A protease,,IC50,,0.64 µM
NC(COC(=O)Nc1ccsc1-c1nc(C(=O)O)c(O)c(=O)[nH]1)c1ccccc1,HCV polymerase,,IC50,,<25 µM
CC(C)[C@H](NC(=O)OC(C)(C)C)C(=O)N1C[C@H](Oc2ccnc3cc(Cl)ccc23)C[C@H]1C(=O)NC1(C(=O)O)CC1,HCV NS3/NS4A protease,,IC50,,9.7 µM
Cc1nn(C)c(Cl)c1S(=O)(=O)Nc1cc(-c2ccccc2)sc1C(=O)O,NS3 ATPase,,IC50,,5–20 µM
O=C1/C(=C\c2ccc(F)c(Br)c2)SC(=S)N1NS(=O)(=O)c1ccccc1,NS5B polymerase,,IC50,,≤30 µM
O=C(O)c1sc(-c2ccccc2)cc1N(Cc1ccc(-c2cc3ccccc3o2)s1)C(=O)c1ccc(Cl)cc1Cl,NS3 ATPase,,IC50,,5–20 µM
O=C(Nc1ccsc1-c1nc(C(=O)O)c(O)c(=O)[nH]1)OCCc1ccc(Cl)cc1Cl,HCV polymerase,,IC50,,<25 µM
O=C1NC(=S)S/C1=C\c1ccc(Cl)cc1,NS5B polymerase,,IC50,,>30 µM
O=C(O)[C@H](Cc1ccccc1)N(Cc1ccc(Br)o1)C(=O)c1ccc(Cl)cc1I,RNA-dependent RNA polymerase,,IC50,,<5 µM
C=C[C@H]1CC1(NC(=O)[C@@H]1C[C@@H](Oc2cc(-c3csc(NC(C)=O)n3)nc3cc(OC)ccc23)CN1C(=O)[C@@H](Nc1ccc(C(=O)N[C@H](C)C(C)(C)C)cc1)C(C)(C)C)C(=O)O,HCV NS3/NS4A protease,,IC50,,0.003 µM
O=C(O)c1nc(-c2sccc2NS(=O)(=O)c2cccc(C(F)(F)F)c2)[nH]c(=O)c1O,HCV polymerase,,IC50,,<25 µM
Cc1ccc(C(=O)N(Cc2cccc(Br)c2)[C@@H](Cc2ccccc2)C(=O)O)c(C)c1,RNA-dependent RNA polymerase,,IC50,,<5 µM
CC(C(=O)Nc1ccsc1-c1nc(C(=O)O)c(O)c(=O)[nH]1)c1n[nH]c(=O)c2ccccc12,HCV polymerase,,IC50,,<25 µM
C=C[C@H]1CC1(NC(=O)[C@@H]1C[C@@H](Oc2cc(-c3ccc(OC)cc3)nc3cc(OC)ccc23)CN1C(=O)[C@@H](NC(=O)OC(C)(C)C)C(C)(C)C)C(=O)O,HCV NS3/NS4A protease,,IC50,,0.024 µM
C[C@H](N)C(=O)Nc1cccc(S(=O)(=O)NC(=O)Nc2cscc2-c2nc(C(=O)O)c(O)c(=O)[nH]2)c1,HCV polymerase,,IC50,,<25 µM
CCOC(=O)c1ccc(N[C@H](C(=O)N2C[C@H](OCc3cccc4ccccc34)C[C@H]2C(=O)NC2(C(=O)O)CC2)C2CCCCC2)cc1,HCV NS3/NS4A protease,,IC50,,42 µM
Cc1ccc(C)c(S(=O)(=O)Nc2cc(-c3ccc([N+](=O)[O-])cc3)sc2C(=O)O)c1,NS3 ATPase,,IC50,,<5 µM
C=C[C@H]1CC1(NC(=O)[C@@H]1C[C@@H](Oc2ccnc3cc(OC)ccc23)CN1C(=O)[C@@H](Nc1ccc(C(=O)NC(C)(C)C)cc1)C(C)(C)C)C(=O)O,HCV NS3/NS4A protease,,IC50,,0.045 µM
COc1cccc(NC(=O)Nc2cccc(-c3nc(C(=O)O)c(O)c(=O)[nH]3)c2)c1,HCV polymerase,,IC50,,<100 µM
Cc1ccc(C(=O)N(c2cc(-c3ccccc3)sc2C(=O)O)C2CC[NH2+]CC2)cc1,NS3 ATPase,,IC50,,<5 µM
CSCC[C@H](NC(=O)[C@H](CCC(=O)O)NC(=O)[C@H](CC(=O)O)NC(C)=O)C(=O)N[C@@H](CCC(=O)O)C(=O)N[C@@H](CC1CCCCC1)C(=O)N[C@@H](CS)C(=O)O,Full-length NS3,,Ki,,1.04 µM
O=C(c1ccc(Cl)cc1Cl)N(Cc1ccc(-c2cc3ccccc3o2)cc1)C(CC1CCCCC1)=C(O)O,RNA-dependent RNA polymerase,,IC50,,<5 µM
C=CC(=O)NCC(=O)N1C[C@H](Oc2nccc3ccc(Br)cc23)C[C@H]1C(=O)N[C@]1(C(=O)NS(=O)(=O)C2CC2)C[C@H]1C=C,Nonstructural protein 3/4A,1b D168V,IC50,FRET,1.261 µM
CC(=O)N[C@@H](CC(=O)O)C(=O)N[C@@H](CCC(=O)O)C(=O)N[C@H](C(=O)N[C@@H](CCC(=O)O)C(=O)N[C@@H](CC1CCCCC1)C(=O)N[C@@H](CS)C(=O)O)C(c1ccccc1)c1ccccc1,HCV NS3 protease,,IC50,,0.05 µM
O=C(O)c1sc(-c2ccccc2)cc1N(Cc1ccc(-c2cccc(C(F)(F)F)c2)o1)C(=O)c1ccc(Cl)cc1Cl,NS3 ATPase,,IC50,,<5 µM
C=C[C@H]1CC1(NC(=O)[C@@H]1C[C@@H](Oc2cc(-c3csc(NCC)n3)nc3cc(OC)ccc23)CN1C(=O)[C@@H](Nc1ccc(C(=O)N[C@H](C)C(C)(C)C)cc1)C(C)(C)C)C(=O)O,HCV NS3/NS4A protease,,IC50,,0.007 µM
Cc1ccccc1S(=O)(=O)Nc1cc(-c2cc(F)cc(F)c2)sc1C(=O)O,NS3 ATPase,,IC50,,<5 µM
COc1cccc(S(=O)(=O)NN2C(=O)/C(=C\c3cc(F)c(F)cc3F)SC2=S)c1,NS5B polymerase,,IC50,,≤30 µM
CC(=O)N[C@@H](CC(=O)O)C(=O)N[C@@H](CCC(=O)O)C(=O)N[C@H](C(=O)N[C@@H](CCCCN)C(=O)N[C@@H](CC1CCCCC1)C(=O)N[C@@H](CS)C(=O)O)C(c1ccccc1)c1ccccc1,HCV NS3 protease,,IC50,,>6 µM
O=C(c1ccc(CN(c2ccc(Cl)cc2Cl)[C@@H](Cc2ccccc2)C(=O)O)cc1)c1cccc(Cl)c1,RNA-dependent RNA polymerase,,IC50,,<5 µM
O=C1/C(=C\c2cc(F)c(F)cc2F)SC(=S)N1NCc1ccccc1,NS5B polymerase,,IC50,,≤30 µM
CSCC[C@H](NC(=O)[C@H](CCC(=O)O)NC(=O)[C@@H](CC(=O)O)NC(C)=O)C(=O)N[C@@H](CCC(=O)O)C(=O)N[C@@H](CCC(=O)O)C(=O)N[C@@H](CS)C(=O)O,HCV NS3 protease,,IC50,,1 µM
C[C@@H](NC(=O)Nc1ccsc1-c1nc(C(=O)O)c(O)c(=O)[nH]1)c1ccccc1,HCV polymerase,,IC50,,<25 µM
O=C(O)c1sc(-c2ccccc2)cc1NS(=O)(=O)c1ccc(Cl)cc1Cl,NS3 ATPase,,IC50,,<5 µM
Nc1nccnc1-c1nc(C(=O)O)c(O)c(=O)[nH]1,HCV polymerase,,IC50,,<100 µM
O=C(O)[C@H](Cc1ccccc1)N(Cc1cccc(Cl)c1)C(=O)c1ccc(Cl)cc1Cl,RNA-dependent RNA polymerase,,IC50,,<5 µM
COc1ccc(OC)c(COC(=O)Nc2ccsc2-c2nc(C(=O)O)c(O)c(=O)[nH]2)c1,HCV polymerase,,IC50,,<25 µM
O=C(O)c1sc(-c2ccccc2)cc1N(Cc1ccc(C(F)(F)F)cc1)C(=O)C1CC1,NS3 ATPase,,IC50,,5–20 µM

Repeating the final 3 entries:

| SMILES | target | strain or isolate | read-out | method | value |
|---|---|---|---|---|---|
| O=C(O)[C@H](Cc1ccccc1)N(Cc1cccc(Cl)c1)C(=O)c1ccc(Cl)cc1Cl | RNA-dependent RNA polymerase |  | IC50 |  | <5 µM |
| COc1ccc(OC)c(COC(=O)Nc2ccsc2-c2nc(C(=O)O)c(O)c(=O)[nH]2)c1 | HCV polymerase |  | IC50 |  | <25 µM |
| O=C(O)c1sc(-c2ccccc2)cc1N(Cc1ccc(C(F)(F)F)cc1)C(=O)C1CC1 | NS3 ATPase |  | IC50 |  | 5–20 µM |